Results of unrelated studies side by side (data: NIAID ChemDB).

Common to all: toxicity to cultured cells; cells: VERO; method: MTT; endpoint: CC50

Neighbouring rows are from separate reports. CCn: concentration that lowers growth or viability of the cells by n%.

smiles	result
CC(=O)O[C@H]1C[C@H](O[C@H]2[C@@H](O)C[C@H](O[C@H]3[C@@H](O)C[C@H](O[C@H]4CC[C@@]5(C)[C@H](CC[C@@H]6[C@@H]5CC[C@]5(C)[C@@H](C7=CC(=O)OC7)CC[C@]65O)C4)O[C@@H]3C)O[C@@H]2C)OC(C)[C@H]1O[C@@H]1O[C@H](CO)[C@@H](O)[C@H](O)[C@H]1O	19 µM
CC(=O)O[C@H]1CC[C@@]2(C)C(=CC[C@@H]3[C@@H]2CC[C@@]2(C)[C@H]3CCC23OCCO3)C1	814.4 µM
Nc1ncnc2c1ncn2C1CC(/C=C/P(=O)(O)O)(C(F)(F)F)CO1	>100 µM
CC[C@@H](C(C)C)[C@H](O)[C@@H](O)[C@@H](C)[C@H]1CC[C@H]2[C@@H]3CC(=O)[C@H]4C[C@H](O)[C@H](O)C[C@]4(C)[C@H]3CC[C@]12C	259 µM
Oc1cc(C(O)CCc2ccc(Cl)cc2)ccc1Oc1ccccc1	>300 µg/mL
CC[C@@H](C(C)C)[C@H](O)[C@@H](O)[C@@H](C)[C@H]1CC[C@H]2[C@@H]3CC(=O)[C@@]4(O)C[C@@H](O)CC[C@]4(C)[C@H]3CC[C@]12C	1044 µM
C[C@]12CCC3C(CC[C@H]4C[C@@H](O)CC[C@]34C)C1C[C@@H](O)C2=O	489.5 µM
O=C(Cc1nn(Cc2ccc(Br)cc2F)c(=O)c2ccccc12)N/N=C/c1ccccc1C(F)(F)F	117.2 µM
Cn1c2ccccc2c2cc(C=NNC(N)=S)ccc21	202.4 µM
Nc1nc(=O)n([C@@H]2C=C(F)[C@H](CO)S2)cc1F	88.1 µM
COc1cc(/C=N/NC(=O)Cc2nn(Cc3ccc(Br)cc3F)c(=O)c3ccccc23)ccc1O	>122.2 µM
C[C@]12CC[C@H](O)C[C@H]1CC[C@@H]1[C@@H]2C[C@@H](O)[C@]2(C)[C@@H](C3=CC(=O)OC3)CC[C@]12O	>250 µM
Fc1ccc(N=C2/C(=C/c3ccco3)CNC/C2=C\c2ccco2)c(F)c1	382 µg/mL
Oc1cc(C(O)CCc2ccc(F)cc2)ccc1Oc1ccccc1	>300 µg/mL
C(=C1/CNC/C(=C\c2ccco2)C1=Nc1ccccc1)/c1ccco1	370 µg/mL
Nc1nc2c(ncn2C2CC(CCP(=O)(O)O)(C(F)(F)F)CO2)c(=O)[nH]1	>100 µM
Cn1c2ccccc2c2cc(C=NNc3nc(-c4ccc(Cl)cc4)cs3)ccc21	389.6 µM
CC(=O)O[C@H]1CC[C@]2(C)C3CC[C@]4(C)C(=O)CCC4C3CC[C@H]2C1	361 µM
O=c1[nH]cnc2c1ncn2[C@@H]1C=C(F)[C@H](CO)S1	>100 µM
Oc1cc(C(O)CCc2ccccc2)ccc1Oc1ccccc1	>300 µg/mL
CC(=O)O[C@H]1CC[C@]2(C)C3CC[C@@]4(C)C(CCC45OCCO5)C3CC[C@H]2C1	1536 µM
C[C@H]1O[C@@H](O[C@H]2CC[C@@]3(C)[C@H](CC[C@@H]4[C@@H]3CC[C@]3(C)[C@@H](C5=CC(=O)OC5)CC[C@]43O)C2)C[C@H](O)[C@@H]1O	6.6 µM
Cn1c2ccccc2c2cc(C=NNc3nc(-c4ccc([N+](=O)[O-])cc4)cs3)ccc21	421.5 µM
CC(=O)O[C@H]1CC[C@@]2(C)C(=CC[C@@H]3[C@@H]2CC[C@]2(C)C(=O)[C@@H](OC(C)=O)C[C@@H]32)C1	584.3 µM
N=C(N)N=C1/C(=C/c2ccco2)CNC/C1=C\c1ccco1	388 µg/mL
Cc1cn([C@H]2C=C(F)[C@@H](CO)S2)c(=O)[nH]c1=O	>100 µM
Nc1ncnc2c1ncn2CCOCP(=O)(O)O	>100 µM
Fc1ccc(N=C2/C(=C/c3ccco3)CNC/C2=C\c2ccco2)cc1F	428 µg/mL
Nc1nc2c(ncn2[C@@H]2OC[C@](CO)(CCP(=O)(O)O)[C@@H]2F)c(=O)[nH]1	>100 µM
C[C@H]1O[C@@H](O[C@H]2[C@@H](O)C[C@H](O[C@H]3CC[C@@]4(C)[C@H](CC[C@@H]5[C@@H]4C[C@@H](O)[C@]4(C)[C@@H](C6=CC(=O)OC6)CC[C@]54O)C3)O[C@@H]2C)C[C@H](O)[C@@H]1O	174 µM
O=C1/C(=C/c2ccc(OCCCN3CCOCC3)cc2)CC/C1=C\c1ccc(OCCCN2CCOCC2)cc1	>9 µM
ONC(=S)NN=C1/C(=C/c2ccco2)CNC/C1=C\c1ccco1	334 µg/mL
O=C(CCc1ccccc1)c1ccc(Oc2ccccc2)c(O)c1	>300 µg/mL
CC[C@@H](C(C)C)[C@H](O)[C@@H](O)[C@@H](C)[C@H]1CC[C@H]2[C@@H]3CC(=O)[C@@]4(O)C[C@@H](F)CC[C@]4(C)[C@H]3CC[C@]12C	250 µM
O=C(Cc1nn(Cc2ccc(Br)cc2F)c(=O)c2ccccc12)N/N=C/c1cccc(Br)c1	>114.9 µM
COc1cc(/C=C2\CC/C(=C\c3ccc(OCCn4ccnc4)c(OC)c3)C2=O)ccc1OCCn1ccnc1	>9 µM
NC(=S)NN=C1/C(=C/c2ccco2)CNC/C1=C\c1ccco1	402 µg/mL
COc1ccc(-c2cc3c(c(=O)o2)C[C@H]2[C@@](C)(CC[C@@]4(O)C(C)(C)OC(=O)CC[C@]24C)O3)cc1	200 µg/mL
C[C@]12CC[C@H](O)CC1=CC[C@@H]1[C@@H]2CC[C@@]2(C)[C@H]1CCC21OCCO1	1955 µM
COc1ccc(CCC(=O)c2ccc(Oc3ccccc3)c(O)c2)cc1	>300 µg/mL
CC[C@@H](CO)NCCN[C@@H](CC)CO	>62.5 µg/mL
O=C(Cc1nn(Cc2ccc(Br)cc2F)c(=O)c2ccccc12)N/N=C/c1ccccc1[N+](=O)[O-]	>122.5 µM
COc1cc(/C=C2\CC/C(=C\c3ccc(OCCN(C)C)c(OC)c3)C2=O)ccc1OCCN(C)C	>9 µM
CC(=O)Nc1nc(=O)n([C@H]2C=C[C@@H](CO)O2)cc1F	103 µM
C[C@]12CCC3C(CC[C@H]4C[C@@H](O)CC[C@]34C)C1[C@@H](O)CC2=O	1108 µM
O=C(CCc1ccco1)c1ccc(Oc2ccccc2)c(O)c1	>300 µg/mL
C[C@H]1O[C@@H](O[C@H]2CC[C@@]3(C)[C@H](CC[C@@H]4[C@@H]3C[C@@H](O)[C@]3(C)[C@@H](C5=CC(=O)OC5)CC[C@]43O)C2)C[C@H](O)[C@@H]1O[C@H]1C[C@H](O)[C@H](O[C@H]2C[C@H](O)[C@H](O[C@@H]3C[C@H](CO)[C@@H](O)[C@H](O)[C@H]3O)[C@@H](C)O2)[C@@H](C)O1	22.15 µM
NN=C1/C(=C/c2ccco2)CNC/C1=C\c1ccco1	76 µg/mL
C[C@H]1O[C@@H](O[C@H]2CC[C@]3(C=O)[C@H]4CC[C@]5(C)[C@@H](C6=CC(=O)OC6)CC[C@]5(O)[C@@H]4CC[C@]3(O)C2)C[C@H](O)[C@@H]1O	>250 µM
O=c1[nH]cnc2c1ncn2[C@H]1C=C(F)[C@@H](CO)S1	>100 µM
O=c1nc(N2CCN(CC3CCCCC3)CC2)sc2c([N+](=O)[O-])cc(C(F)(F)F)cc12	6.2 µg/mL
COc1ccc(CCC(O)c2ccc(Oc3ccccc3)c(O)c2)cc1	>300 µg/mL
O=c1[nH]c(=O)n([C@@H]2C=C[C@H](CO)O2)cc1F	32 µM
Nc1nc2c(ncn2[C@@H]2C=C(F)[C@H](CO)S2)c(=O)[nH]1	>100 µM
O=C(Cc1nn(Cc2ccc(Br)cc2F)c(=O)c2ccccc12)N/N=C(\c1ccccc1)c1ccc(Br)cc1	100.8 µM
CO[C@H]1C[C@H](O[C@H]2CC[C@]3(C=O)[C@H]4CC[C@]5(C)[C@@H](C6=CC(=O)OC6)CC[C@]5(O)[C@@H]4CC[C@]3(O)C2)O[C@H](C)[C@H]1O[C@@H]1O[C@H](CO[C@@H]2O[C@H](CO)[C@@H](O)[C@H](O)[C@H]2O)[C@@H](O)[C@H](O)[C@H]1O	>250 µM
Nc1ncnc2c1ncn2CCOCP(=O)(O)O	>100 µM
Cn1c2ccccc2c2cc(C=NNc3nc(-c4cccc(F)c4)cs3)ccc21	248.5 µM
COc1cc(/C=C2\CC/C(=C\c3ccc(OCCCn4ccnc4)c(OC)c3)C2=O)ccc1OCCCn1ccnc1	>9 µM
Cn1c2ccccc2c2cc(C=NNc3nc(-c4ccccc4)cs3)ccc21	321.5 µM
CC(=O)O[C@H]1CC[C@@]2(C)C(=CC[C@@H]3[C@@H]2CC[C@]2(C)C(=O)CC[C@@H]32)C1	1227 µM
ON=C1/C(=C/c2ccco2)CNC/C1=C\c1ccco1	82 µg/mL
COC1(Cc2ccc(O)cc2)OC(=O)C(O)=C1c1ccc(O)cc1	200 µg/mL
C[C@H]1O[C@@H](O[C@H]2[C@@H](O)C[C@H](O[C@H]3[C@@H](O)C[C@H](O[C@H]4CC[C@@]5(C)[C@H](CC[C@@H]6[C@@H]5CC[C@]5(C)[C@@H](C7=CC(=O)OC7)CC[C@]65O)C4)O[C@@H]3C)O[C@@H]2C)C[C@H](O)[C@@H]1O	5.67 µM
O=[N+]([O-])c1ccc(CN2CC3CN(c4cccc(C(F)(F)F)c4)CC3C2)o1	>64 µg/mL
CC[C@@H](C(C)C)[C@@H](O)[C@H](O)[C@@H](C)[C@H]1CC[C@H]2[C@@H]3CC(=O)[C@H]4C[C@@H](Br)CC[C@]4(C)[C@H]3CC[C@]12C	114 µM
CO[C@H]1/C=C/O[C@@]2(C)Oc3c(C)c(O)c4c(O)c(c(/C=N/N5CCN(C)CC5)c(O)c4c3C2=O)NC(=O)/C(C)=C\C=C\[C@H](C)[C@H](O)[C@@H](C)[C@@H](O)[C@@H](C)[C@H](OC(C)=O)[C@@H]1C	>500 µg/mL

A second listing of 8 rows from above:

| smiles | result |
|---|---|
| O=c1[nH]c(=O)n([C@@H]2C=C[C@H](CO)O2)cc1F | 32 µM |
| C[C@]12CC[C@H](O)C[C@H]1CC[C@@H]1[C@@H]2C[C@@H](O)[C@]2(C)[C@@H](C3=CC(=O)OC3)CC[C@]12O | >250 µM |
| C[C@H]1O[C@@H](O[C@H]2CC[C@@]3(C)[C@H](CC[C@@H]4[C@@H]3C[C@@H](O)[C@]3(C)[C@@H](C5=CC(=O)OC5)CC[C@]43O)C2)C[C@H](O)[C@@H]1O[C@H]1C[C@H](O)[C@H](O[C@H]2C[C@H](O)[C@H](O[C@@H]3C[C@H](CO)[C@@H](O)[C@H](O)[C@H]3O)[C@@H](C)O2)[C@@H](C)O1 | 22.15 µM |
| CC(=O)O[C@H]1CC[C@@]2(C)C(=CC[C@@H]3[C@@H]2CC[C@@]2(C)[C@H]3CCC23OCCO3)C1 | 814.4 µM |
| Cn1c2ccccc2c2cc(C=NNc3nc(-c4ccc([N+](=O)[O-])cc4)cs3)ccc21 | 421.5 µM |
| O=C1/C(=C/c2ccc(OCCCN3CCOCC3)cc2)CC/C1=C\c1ccc(OCCCN2CCOCC2)cc1 | >9 µM |
| CC[C@@H](C(C)C)[C@H](O)[C@@H](O)[C@@H](C)[C@H]1CC[C@H]2[C@@H]3CC(=O)[C@@]4(O)C[C@@H](O)CC[C@]4(C)[C@H]3CC[C@]12C | 1044 µM |
| COc1cc(/C=C2\CC/C(=C\c3ccc(OCCN(C)C)c(OC)c3)C2=O)ccc1OCCN(C)C | >9 µM |